Consider one molecule from ChEMBL document CHEMBL3997795, “Conjugates of 2,4-Dihydroxybenzoate and Salicylhydroxamate and Lipocations Display Potent Antiparasite Effects by Efficiently Targeting the Trypanosoma brucei and Trypanosoma congolense Mitochondrion” (J Med Chem, 2017).

A short description of data set [1]: Selectivity index, ratio of CC50 for HEK293T cells to EC50 for bloodstream form of Trypanosoma congolense IL3000. Conditions: human.
In data set [2] the test system is Trypanosoma brucei brucei. The data set is described as follows: Anti-parasitic activity against bloodstream trypomastigote stage of wild-type Trypanosoma brucei brucei Lister 427 after 48 hrs by alamar blue based fluorescence assay. On the technique in general: Resazurin is reduced to fluorescent resorufin, in cell work by metabolically active cells.

SMILES strings stand for the structures.

The EC50 is the concentration that produces a half-maximal response. Higher therefore signals a less potent agent. Consider `O=[As]c1ccccc1` (configuration not stated), for which the Ratio CC50/EC50 in data set [1] was 0.036. In addition, the EC50 in data set [2] came to 1.1 nM.
